In PubChem BioAssay AID556 (SRMLSC, 2006) one finds inhibition data, which are given here for 7 molecules.

Molecules are shown by their SMILES. The list shows a part of the results, in another mix than the full data. Activity calls are given as the source filed them.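 Rule for the calls: active = the 320 compounds with the highest percent inhibition in the single-dose primary screen, excluding strongly autofluorescent ones (cut at about 32% in these data); inactive = the rest, inconclusive results apart.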

The test concerns diphosphomevalonate decarboxylase (Streptococcus pneumoniae D39). Description: diphosphomevalonate decarboxylase activity blockers – biochemical, PK/LDH-coupled NADH fluorescence, primary screen (AID 556).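 For inhibition: kinetic rate of NADH fluorescence loss reporting ADP formed by the decarboxylase; 0% = full reaction rate with carrier and 100% = no-substrate background rate.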 The settings on record: purified DPM-DC, at 10 µM; hits give high values.
Usually inhibition stands for the share of the control response that was lost under treatment. `COc1ccc(NC2CCN(CCc3ccccc3)CC2)c(OC)c1`: the inhibition result was “inactive”. In the case of `O=C(OC1CN2CCC1CC2)C1c2ccccc2Oc2ccccc21` (configuration not stated) it was “inactive”; in that of `N#CC1(Nc2ccccc2)CCN(CCc2ccccc2)CC1`, “inactive”. Regarding `N/C(=N\O)c1c(N)no[n+]1[O-]`, the inhibition entry was “inactive”. Turning to `CCC(CO)(C(=O)OC1CN2CCC1CC2)c1ccccc1` (configuration not stated), the inhibition entry is “inactive”. On to `CCOc1ncccc1C(=O)NCC1(N2CCOCC2)CCCCC1`, for which the inhibition result is “inactive”. To `Fc1ccccc1NC1CCN(Cc2ccccc2)CC1` belongs inactive: 1%.
